Assay results from PMC6832962, “Identification of Crucial Residues in α-Conotoxin EI Inhibiting Muscle Nicotinic Acetylcholine Receptor” (2019).
pIC50: −log10 of the molar value. “And” between values parts separate entries of the source, which are not always exact repeats. Equal values may be shown once.

Sequences of proteins named here, by UniProt entry; tags and fusion partners are left off. Residues count along the entry.
UniProt P04757, 26-499 limits assumed: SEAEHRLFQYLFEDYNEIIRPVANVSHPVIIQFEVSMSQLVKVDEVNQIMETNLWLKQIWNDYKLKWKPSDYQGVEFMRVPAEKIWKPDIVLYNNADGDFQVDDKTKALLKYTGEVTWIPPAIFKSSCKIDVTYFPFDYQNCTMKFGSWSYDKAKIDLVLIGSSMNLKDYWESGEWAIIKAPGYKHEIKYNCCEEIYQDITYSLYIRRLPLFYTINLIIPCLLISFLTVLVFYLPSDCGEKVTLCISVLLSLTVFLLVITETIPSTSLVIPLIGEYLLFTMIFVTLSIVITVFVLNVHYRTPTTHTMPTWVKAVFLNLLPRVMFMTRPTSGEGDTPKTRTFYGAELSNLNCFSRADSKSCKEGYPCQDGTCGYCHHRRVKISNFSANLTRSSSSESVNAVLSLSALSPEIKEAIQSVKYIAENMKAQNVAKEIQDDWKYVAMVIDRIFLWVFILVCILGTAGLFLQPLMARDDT
UniProt P12390, 25-500 limits assumed: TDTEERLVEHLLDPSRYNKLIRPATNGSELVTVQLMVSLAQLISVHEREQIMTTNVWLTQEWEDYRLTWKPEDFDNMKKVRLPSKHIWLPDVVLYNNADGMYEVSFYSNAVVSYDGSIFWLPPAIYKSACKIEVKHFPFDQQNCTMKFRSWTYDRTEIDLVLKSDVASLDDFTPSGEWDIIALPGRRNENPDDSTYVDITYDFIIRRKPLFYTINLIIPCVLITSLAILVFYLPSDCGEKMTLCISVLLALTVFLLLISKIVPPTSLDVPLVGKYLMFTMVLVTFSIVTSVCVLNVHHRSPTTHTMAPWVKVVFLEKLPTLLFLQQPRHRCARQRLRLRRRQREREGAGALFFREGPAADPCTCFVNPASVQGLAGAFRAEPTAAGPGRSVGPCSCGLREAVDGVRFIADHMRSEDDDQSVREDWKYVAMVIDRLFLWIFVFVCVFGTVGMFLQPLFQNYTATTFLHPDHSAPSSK
UniProt P12392, 21-495 limits assumed: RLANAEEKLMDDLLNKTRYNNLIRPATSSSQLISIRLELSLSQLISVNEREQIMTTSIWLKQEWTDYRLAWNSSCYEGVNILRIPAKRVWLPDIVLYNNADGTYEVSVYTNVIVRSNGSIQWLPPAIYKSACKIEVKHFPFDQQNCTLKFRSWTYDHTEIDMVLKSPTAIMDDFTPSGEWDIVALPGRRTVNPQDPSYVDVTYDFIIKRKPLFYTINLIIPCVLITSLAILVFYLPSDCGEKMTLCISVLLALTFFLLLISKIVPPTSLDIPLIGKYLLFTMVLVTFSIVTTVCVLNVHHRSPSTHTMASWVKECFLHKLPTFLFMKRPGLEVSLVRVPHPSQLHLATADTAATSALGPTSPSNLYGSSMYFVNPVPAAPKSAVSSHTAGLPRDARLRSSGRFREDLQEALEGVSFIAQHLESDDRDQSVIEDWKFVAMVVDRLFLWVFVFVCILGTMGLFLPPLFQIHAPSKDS

Key:
rat α3β2 nAChR [1] = target: T1, rat α3β2 nAChR (Rattus norvegicus, UniProt P04757+P12390); experiment: TEVC recording of ACh-evoked currents, rat α3β2 nAChR expressed in Xenopus laevis oocytes; conditions: for activity at α3β2 nAChR: concentrations up to 10 μM
mouse α1β1δε nAChR [2] = target: T2, mouse α1β1δε nAChR (Mus musculus, UniProt P02716+P04756+P20782)
mouse α1β1δε nAChR [3] = target: T2, mouse α1β1δε nAChR; experiment: TEVC recording of ACh-evoked currents, mouse α1β1δε nAChR expressed in Xenopus laevis oocytes; conditions: for effect on α1β1δε nAChR: 1 μM peptide
rat α3β2 nAChR [4] = target: T1, rat α3β2 nAChR
rat α3β4 nAChR [5] = target: T3, rat α3β4 nAChR (Rattus norvegicus, UniProt P04757+P12392); experiment: TEVC recording of ACh-evoked currents, rat α3β4 nAChR expressed in Xenopus laevis oocytes; conditions: for activity at α3β4 nAChR: concentrations up to 10 μM
rat α3β4 nAChR [6] = target: T3, rat α3β4 nAChR

Structure (SMILES)	activity at α3β2 nAChR (rat α3β2 nAChR [1])	pIC50 (mouse α1β1δε nAChR [2])	effect on α1β1δε nAChR (mouse α1β1δε nAChR [3])	pIC50 (rat α3β2 nAChR [4])	activity at α3β4 nAChR (rat α3β4 nAChR [5])	pIC50 (rat α3β4 nAChR [6])	activity at α1β1δε nAChR (mouse α1β1δε nAChR [3]; 10 nM peptide)	inhibition at α3β2 nAChR (rat α3β2 nAChR [1]; 1 μM peptide, n = 3)	inhibition at α3β4 nAChR (rat α3β4 nAChR [5]; 1 μM peptide, n = 3)
CC[C@H](C)[C@@H]1NC(=O)[C@H](CCC(N)=O)NC(=O)[C@@H]2CCCN2C(=O)[C@H](CC(N)=O)NC(=O)[C@H](CO)NC(=O)[C@H](CCSC)NC(=O)[C@H](CC(N)=O)NC(=O)[C@@H]2CSSC[C@H](N)C(=O)N[C@@H](CSSC[C@@H](C(N)=O)NC1=O)C(=O)N[C@@H](Cc1ccc(O)cc1)C(=O)N[C@@H](Cc1c[nH]cn1)C(=O)N1CCC[C@H]1C(=O)N[C@@H]([C@@H](C)O)C(=O)N2	no activity	4.91	little effect	< 5.00	no activity	< 5.00	–	–	–
CC[C@H](C)[C@@H]1NC(=O)[C@H](CCC(N)=O)NC(=O)[C@@H]2CCCN2C(=O)[C@H](CC(N)=O)NC(=O)[C@H](CO)NC(=O)[C@H](CCSC)NC(=O)[C@H](CC(N)=O)NC(=O)[C@@H]2CSSC[C@H](NC(=O)[C@@H]3C[C@@H](O)CN3C(=O)[C@H](CC(=O)O)NC(=O)[C@@H](N)CCCNC(=N)N)C(=O)N[C@@H](CSSC[C@@H](C(N)=O)NC1=O)C(=O)N[C@@H](Cc1ccc(O)cc1)C(=O)N[C@@H](Cc1c[nH]cn1)C(=O)N1CCC[C@H]1C(=O)N[C@@H]([C@@H](C)O)C(=O)N2	–	7.18	–	5.14	–	5.19	no activity	–	–
CC[C@H](C)[C@@H]1NC(=O)[C@H](CCC(N)=O)NC(=O)[C@@H]2CCCN2C(=O)[C@H](CC(N)=O)NC(=O)[C@H](C)NC(=O)[C@H](CCSC)NC(=O)[C@H](CC(N)=O)NC(=O)[C@@H]2CSSC[C@H](NC(=O)[C@@H]3C[C@@H](O)CN3C(=O)[C@H](CC(=O)O)NC(=O)[C@@H](N)CCCNC(=N)N)C(=O)N[C@@H](CSSC[C@@H](C(N)=O)NC1=O)C(=O)N[C@@H](Cc1ccc(O)cc1)C(=O)N[C@@H](Cc1c[nH]cn1)C(=O)N1CCC[C@H]1C(=O)N[C@@H]([C@@H](C)O)C(=O)N2	–	7.46	–	< 5.00	–	< 5.00	–	9.5 ± 2.0%	3 ± 0.8%
CC[C@H](C)[C@@H]1NC(=O)[C@H](CCC(N)=O)NC(=O)[C@@H]2CCCN2C(=O)[C@H](CC(N)=O)NC(=O)[C@H](CO)NC(=O)[C@H](CCSC)NC(=O)[C@H](CC(N)=O)NC(=O)[C@@H]2CSSC[C@H](NC(=O)[C@@H]3C[C@@H](O)CN3C(=O)[C@@H](N)CC(=O)O)C(=O)N[C@@H](CSSC[C@@H](C(N)=O)NC1=O)C(=O)N[C@@H](Cc1ccc(O)cc1)C(=O)N[C@@H](Cc1c[nH]cn1)C(=O)N1CCC[C@H]1C(=O)N[C@@H]([C@@H](C)O)C(=O)N2	–	6.14 and 6.15	–	< 5.00	–	< 5.00	–	–	–
CC[C@H](C)[C@@H]1NC(=O)[C@H](CCC(N)=O)NC(=O)[C@@H]2CCCN2C(=O)[C@H](CC(N)=O)NC(=O)[C@H](CO)NC(=O)[C@H](CCSC)NC(=O)[C@H](CC(N)=O)NC(=O)[C@@H]2CSSC[C@H](NC(=O)[C@@H]3C[C@@H](O)CN3)C(=O)N[C@@H](CSSC[C@@H](C(N)=O)NC1=O)C(=O)N[C@@H](Cc1ccc(O)cc1)C(=O)N[C@@H](Cc1c[nH]cn1)C(=O)N1CCC[C@H]1C(=O)N[C@@H]([C@@H](C)O)C(=O)N2	no activity	4.89	little effect	< 5.00	no activity	< 5.00	–	–	–
